According to patent publication US20230015525A1, “Anaerobic Blood Storage and Pathogen Inactivation Method” (Hemanext Inc., priority 2019, published 2023):
Values joined by “and” are separate entries in the source; they are usually repeats but may differ in a detail not shown here. Identical values can stand only once.

System: RBCs
Assay: Levels of GSH and GSSG in RBCs at different pre-storage % SO2, UHPLC/MS (Example 13)
Assay type: cell-based
Settings: for GSH/GSSG / concentration in RBC, MEAN (4): Day 2

## N[C@@H](CCC(=O)N[C@@H](CS)C(=O)NCC(=O)O)C(=O)O [GSH, glutathione]
5% SO2
  maximum level of GSH in RBCs: 1.6 mM
  GSH/GSSG: 4.3
  concentration in RBC, MEAN (4): 1,600±511 μM and 1,604 μM
20% SO2
  maximum level of GSH in RBCs: 1.4 mM
  GSH/GSSG: 2.5
  concentration in RBC, MEAN (4): 1,374 μM
+95% SO2
  GSH/GSSG: 2.1
  concentration in RBC, MEAN (4): 907 ± 525 µM and 907 µM
Control (60% SO2)
  GSH/GSSG: 1.6
  concentration in RBC, MEAN (4): 765 µM
